Here are results for three compounds from patent publication US7691572B2, “Method and kit for detecting resistance to antiviral drugs” (priority 1998, dated 2010).

SMILES strings stand for the structures. Read-outs that look alike come from different tables or passages of the source. Where only a bound is given, the exact number is not on record here.

In assay [1] the test system is HIV-1 reverse transcriptase. In words: Amp-RT assay, inhibition by 3TC-TP, reference viruses. Conditions: RTs carrying AZT (D67N, K70R, T215F, K219Q) or nevirapine (Y181C) resistance mutations. The class given is biochemical. An excerpt:
The phenotypic assay used in this example was based on the analysis of the susceptibility of HIV-1 reverse transcriptase activity from plasma to inhibition by 3TC-TP.
The assay detects reverse transcriptase activity by using a nonretroviral heteropolymeric RNA template derived from the encephalomyocarditis virus (EMCV) genome, and a complementary EMCV-specific DNA oligoprimer. The RT-generated EMCV cDNA is detected by PCR amplification and internal oligoprobing of the PCR product with an EMCV-specific probe.
Amp-RT detects reverse transcriptase activity by using a heterologous RNA template derived from the encephalomyocarditis virus (EMCV), a complementary DNA oligoprimer, and PCR amplification of reverse transcriptase-generated EMCV cDNA. […] To determine the susceptibility of the reverse transcriptase to 3TC-TP, an additional Amp-RT reaction was made in the presence of 3TC-TP, with concentrations of 3TC-TP ranging from 0.1 to 10 μM. […] PCR amplification of reverse transcriptase products was made as follows after the addition of 200 μM of each dNTP. A volume of 50 μl of PCR buffer containing 2.5 units of Taq polymerase, 100 ng of the sense primer EMCF1, and 200 μM of each dNTP was added to the reverse transcriptase mixture. […]

The subject of assay [2] is HIV-1 RT. The class given is biochemical. The note with it: 1 μM AZT-TP, Y181C.
For assay [3], the system named is HIV-1 RT. The assay is described as follows: Amp-RT assay, AZT-TP and other NRTI-TPs, reference viruses. In kind it is biochemical. The note with it: 1 μM AZT-TP.
The subject of another assay is HIV-1 isolates. The note with it: read-out: IC50 Culture, cited from earlier work.

On to `Nc1ccn([C@@H]2CS[C@H](COP(=O)(O)OP(=O)(O)OP(=O)(O)O)O2)c(=O)n1` [3TC-TP, 3TC-5′-triphosphate], for which the “susceptibility to 3TC-TP” value in assay [1] is reported as “susceptible”.
With `Cc1cn([C@H]2C[C@H](N=[N+]=[N-])[C@@H](COP(=O)(O)OP(=O)(O)OP(=O)(O)O)O2)c(=O)[nH]c1=O` [AZT-TP, AZT-triphosphate], the “% inhibition” value in the assay on HIV-1 RT [2] (specimen 33, A62V, K70G, Q151M, M184V) is given as 39.5%; in the assay on HIV-1 RT [2] (specimen 34, A62V, K70G, Q151M, M184V), 45%; in the assay on HIV-1 RT [2] (specimen 38, D67N, T69D, L214F, T215Y) it was 90%; with HIV-1 RT [2] (specimen 44, A62V, I135T, T215Y, T69S-insertions SG) it was 96.5%. Also, the “% inhibition (SEM)” value was 94.4 (±3) % in the assay on HIV-1 RT [3] (HIV-1Y181C/M184V) and 93.5 (±4.2) % with HIV-1 RT [3] (HIV-1181C/YEU, Y181C).
Turning to `Cc1ccnc2c1NC(=O)c1cccnc1N2C1CC1` [nevirapine], the IC50 with HIV-1 isolates (isolate V818-5 (G190A, Y181C)) was over 100 µM; with HIV-1 isolates (isolate W786-6 (K103N, Y181C)), 20 µM; in the assay on HIV-1 isolates (isolate X165-11 (G190A, Y181C)) it was 22 µM; in the assay on HIV-1 isolates (isolate X403-4 (Y181C)), 9 µM.
